Anti-infective test results gathered from many reports (values: NIAID ChemDB through PubChem).

All rows: whole-cell or culture tests; agent: Mycobacterium tuberculosis

Percent inhibition refers to the dose given; in toxicity tests it is the harm to the cells. MIC bound: limit read from a one-dose screen. An empty or dashed field is not shown. A number after MIC or MFC names an inhibition level or a share of isolates. Lines come from different laboratories, so protocols vary. Two numbers with a dash give a range or band. ECn: concentration that inhibits the pathogen or its effect by n%.

SMILES,method,conditions,read-out,cells,strain,dose,result
CC(C)(C)c1cc(C(C)(C)C)c2oc(-c3ccccc3O)nc2c1,BACTEC,-,MIC,-,H37Rv,-,>6.25 µg/mL
O=C(/C=C/c1ccccc1)Nc1ccccc1CN1CCOCC1,-,-,MIC,-,103471,-,>16 µg/mL
CCCCCN1C(=O)c2cc(Cl)nnc2Oc2cc(C)ccc21,BACTEC,-,EC50,-,H37Rv,-,<12.5 µg/mL
Cc1cc2c(cc1C)[n+](=O)c(C(=O)N1CCN(c3ccccc3)CC1)c(C)n2[O-],-,-,inhibition,-,H37Rv,6.25 µg/mL,0%
O=C(O)c1cn(C2CCCC2)c2cc(NC3CCCC3)c(F)cc2c1=O,-,-,MIC50,-,ATCC 27294 (WT),-,>200 µM
CCCNC(=O)Nc1ccc(S(=O)(=O)Nc2cc(C)on2)cc1,broth dilution / absorbance,21 d,MIC100,-,H37Rv,-,>1000 µM
C[C@H]1COc2c(N3CCC4(CC3)OCCO4)c(F)c(N)c3c(=O)c(C(=O)O)cn1c23,agar,-,MIC99,-,MDR-TB,-,3.72 µM
CCOC(=O)Nc1cc(NCc2ccccc2)c([N+](=O)[O-])c(N)n1,-,-,EC50,-,H37Rv,-,<12.5 µg/mL
NC(=O)NNC(=O)c1ccco1,BACTEC,-,inhibition,-,H37Rv,12.5 µg/mL,0%
O=C(O)c1cn(C2CCC2)c2cc(NC3CCC3)c([N+](=O)[O-])cc2c1=O,-,-,MIC50,-,ATCC 27294 (WT),-,>200 µM
O=C(/C=C/c1ccccc1)Nc1ccc(CN2CCOCC2)cc1,-,-,MIC,-,103471,-,8 µg/mL
O=C(O)C(NCCNC(C(=O)O)c1ccccc1)c1ccccc1,-,-,MIC bound,-,H37Rv,-,>6.25 µg/mL
Cc1onc(-c2c(F)cccc2F)c1C(=O)N1CCN(c2c(F)c([N+](=O)[O-])c3c(=O)c(C(=O)O)cn4c3c2OCC4C)CC1,agar,-,MIC99,-,-,-,5.1 µM
CC(C)(C)c1cc(C(C)(C)C)c2oc(/C=C/c3ccccc3)nc2c1,-,-,MIC,-,H37Rv,-,>128 µg/mL
O=C(/C=C1\N[C@@H]2CCCC[C@H]2N\C1=C/C(=O)c1ccccc1)c1ccccc1,-,-,inhibition,-,-,6.25 µg/mL,0%
CCOC(=O)Nc1cc(NCc2ccc(S(N)(=O)=O)cc2)c2nc(-c3ccccc3)c(-c3ccccc3)nc2n1,-,-,EC50,VERO,H37Rv,-,<12.5 µg/mL
COc1ccc(OC)c(NC(=O)Nc2c(C)n(C)n(-c3ccccc3)c2=O)c1,BACTEC,-,MIC,-,H37Rv,-,≥12.8 µg/mL
CCCCCCCN1C(=O)c2ccnnc2Oc2cc(C)ccc21,BACTEC,-,inhibition,-,H37Rv,12.5 µg/mL,1%
CCOC(=O)CC(=O)NCC(=O)N1CCN(c2ccc(N3C[C@H](Cn4ccnn4)OC3=O)cc2F)CC1,visual reading,-,MIC,-,H37Rv,-,≤0.091 µM
[N-]=[N+]=NCCCCCCCCN1C(=O)C2(OCCO2)c2cc(Cl)ccc21,-,-,MIC99,-,MC2 6230,-,137 µM
COC1=C(C)C(=O)c2cc(=O)n(C)cc2C1=O,-,-,MIC,-,Matsudo,-,1.56 µg/mL
O/C(=C\c1nc2ccccc2nc1/C=C(\O)c1ccc(Cl)cc1)c1ccc(Cl)cc1,-,-,MIC,-,-,-,>6.25 µg/mL
CCOC(=O)Nc1cc2ncc(CN(C)c3ccc(C(=O)OC)cc3)nc2c(N)n1,-,-,inhibition,-,H37Rv,12.5 µg/mL,0%
NNC(=O)CNc1cccc(Br)c1,BACTEC,-,MIC bound,-,H37Rv,-,>12.5 µg/mL
O=C1c2cc(Cl)nnc2Oc2ccc3ccccc3c2N1CCCC1CCCCC1,BACTEC,-,EC50,-,H37Rv,-,>12.5 µg/mL
CC[C@@H](C)C(=O)O[C@H]1[C@H](O)[C@H]2[C@@H](CN3C[C@@H](C)CC[C@H]3[C@@]2(C)O)[C@@H]2C[C@]34O[C@]5(O)[C@@H](OC(=O)[C@](C)(O)[C@@H](C)O)CC[C@@]3(C)[C@@H]5[C@@H](OC(C)=O)[C@@H](OC(C)=O)[C@H]4[C@@]21O,BACTEC,-,MIC,-,H37Rv,-,≥128 µg/mL
O=C(/C=C1\N[C@H]2CCCC[C@H]2N\C1=C/C(=O)c1ccccc1)c1ccccc1,-,-,inhibition,-,-,6.25 µg/mL,0%
CCOc1cc(Cc2cnc(N)nc2N)cc(OCC)c1-n1cccc1,-,-,MIC,-,10 strains (isoniazid- rifampin-susceptible),-,≥256 µg/mL
C/C=C1/C(=O)O[C@]23C=C[C@@H]4C(C(=O)OC)=CO[C@H](O[C@@H]12)[C@@H]43,MTT,-,MIC,-,MDR4 clinical isolate,-,2 µg/mL
CN(C)c1ncnc2c1ncn2C1OC(CO)C2NP(=O)(N(CCCl)CCCl)OC21,BACTEC,-,inhibition,-,H37Rv,12.5 µg/mL,20%
CC1COc2c(N3CCN(C)C(c4ccccc4)C3)c(F)c([N+](=O)[O-])c3c(=O)c(C(=O)O)cn1c23,agar,-,MIC99,-,MDR-TB,-,3.23 µM
Cc1cc(NCCN(C(C)C)C(C)C)nc(Nc2nc3cc(Cl)c(Cl)cc3[nH]2)n1,BACTEC,-,inhibition,-,H37Rv,6.25 µg/mL,63%
Cc1ccc2c(c1)Oc1nnc(Cl)cc1C(=O)N2CCCC1CCCCC1,BACTEC,-,EC50,-,H37Rv,-,<12.5 µg/mL
Cc1cc(NS(=O)(=O)c2ccc(NC(=O)N(C(C)C)C(C)C)cc2)no1,broth dilution / absorbance,21 d,MIC100,-,H37Rv,-,250 µM
O=C(Nc1ccccc1CN1CCOCC1)c1ccc(-c2ccccc2)cc1,-,-,MIC,-,103471,-,>16 µg/mL
CC(=O)O[C@H]1C2=C(C(=O)C(C(=O)Oc3ccc(Cl)cc3)=C(C(C)C)C2=O)[C@@]2(C)CCCC(C)(C)[C@@H]2C1C(=O)Oc1ccc(Cl)cc1,MTT,-,MIC100,-,H37Rv,-,>25 µg/mL
CC(C)(C)c1cc(C(C)(C)C)c2oc(-c3ccc(Cl)cc3)nc2c1,BACTEC,-,inhibition,-,H37Rv,6.25 µg/mL,<90%
CNC(=S)c1ccc(C(=O)N(C(C)C)C(C)C)nc1C(=O)N(C(C)C)C(C)C,BACTEC,-,MIC bound,-,H37Rv,-,>6.25 µg/mL
C[C@H]1COc2c(N3CCN(C)C(c4ccccc4)C3)c(F)cc3c(=O)c(C(=O)O)cn1c23,agar,-,MIC99,-,-,-,14.29 µM
CCCCCCCNC(=O)Nc1ccc(S(=O)(=O)Nc2cc(C)on2)cc1,broth dilution / absorbance,14 d,MIC100,-,H37Rv,-,250 µM
[N-]=[N+]=NCCCN1C(=O)C2(OCCO2)c2cc(F)ccc21,-,-,MIC99,-,MC2 6230,-,>343 µM
CCCCCCCCCCNC(=O)Nc1ccc(S(=O)(=O)Nc2cc(C)on2)cc1,broth dilution / absorbance,21 d,MIC100,-,H37Rv,-,125 µM
CCOC(=O)Nc1cc(N)c2nc(C)cnc2n1,-,-,EC50,-,H37Rv,-,>12.5 µg/mL
CC1C(c2ccccc2)=Nn2c(=O)n(-c3ccccc3)c(=O)n21,BACTEC,-,MIC bound,-,H37Rv,-,>12.8 µg/mL
CC1COc2c(N3CCN(C(N)=NC#N)CC3)c(F)cc3c(=O)c(C(=O)O)cn1c23,broth dilution,-,MIC,-,ATCC 35820,-,0.312 µg/mL
CC(=O)N1C(=O)C2(Nc3cccnc3N2)c2ccccc21,BACTEC,-,MIC,-,H37Rv,-,≥12.8 µg/mL
CC(C)(C)n1cc(C(=O)O)c(=O)c2cc([N+](=O)[O-])c(N3CCOCC3)cc21,-,-,MIC50,-,ATCC 27294 (WT),-,0.2 µM
CC(C)(C)c1cc(C(C)(C)C)c2oc(-c3cccc(Br)c3)nc2c1,BACTEC,-,inhibition,-,H37Rv,6.25 µg/mL,<90%
O=C1c2cc(Cl)nnc2Oc2ccc(Cl)cc2N1CC1CCCCC1,BACTEC,-,inhibition,-,H37Rv,12.5 µg/mL,59%
C[C@@H]1C(=O)OCC2=CCN3CC[C@@H](OC(=O)[C@@H](C)[C@@]1(C)O)[C@@H]23,BACTEC,-,MIC bound,-,H37Rv,-,>12.8 µg/mL
CNC(=O)Nc1ccc(S(=O)(=O)Nc2cc(C)on2)cc1,broth dilution / absorbance,14 d,MIC100,-,H37Rv,-,16 µM
Cc1ccc(NC(=O)C(=O)C2C(=O)N(c3ccccc3)N=C2N)cc1C,resazurin,-,inhibition,-,H37Rv,6.25 µg/mL,18%
[N-]=[N+]=NCCCCN1C(=O)C(=O)c2cc(F)ccc21,-,-,MIC99,-,MC2 6230,-,>382 µM
CN1C(=O)C2C(=O)N(Cc3ccccc3)CC(=O)N2c2cccnc21,resazurin,-,MIC bound,-,H37Rv,-,>6.25 µg/mL
CC(C)C1=C(O)C2=C(C(=O)C1=O)[C@@]1(C)CCCC(C)(C)C1C=C2,MTT,-,MIC100,-,MDR,-,≤12.5 µg/mL
[N-]=[N+]=NCCCCCCN1C(=O)C(=O)c2cc(F)ccc21,-,-,MIC99,-,MC2 6230,-,172 µM
CCN(CC)CCCC(C)Nc1cc(C)nc2ccc(N(C)C)cc12,resazurin,-,inhibition,-,H37Rv,6.25 µg/mL,-5%
Cc1ccccc1NC(=O)c1c(C)n([O-])c2cc(Cl)c(Cl)cc2[n+]1=O,-,-,MIC,-,H37Rv,-,>6.25 µg/mL
COc1ccc(C2C3CCCC(C(c4ccc(OC)cc4)N2C)C32NC(=O)NC2=O)cc1,BACTEC,-,MIC bound,-,H37Rv,-,>12.5 µg/mL
O=C(NCC(=O)N1CCN(c2ccc(N3C[C@H](Cn4ccnn4)OC3=O)cc2F)CC1)C1=CC=C([N+](=O)[O-])C1,broth dilution / visual reading,-,MIC,-,H37Rv,-,0.5 µM
[N-]=[N+]=NCCCN1C(=O)C2(OCCO2)c2ccccc21,-,-,MIC99,-,MC2 6230,-,>365 µM
COc1ccc(OC(=O)C2=C(C(C)C)C(=O)C3=C(C2=O)[C@@]2(C)CCCC(C)(C)[C@@H]2[C@H](O)[C@H]3OC(C)=O)cc1,MTT,-,MIC100,-,H37Rv,-,3.12 µg/mL
C/C(=N\NC(=S)N(C)C)c1ccccn1.[Cu][Br],-,-,MIC90,-,R506,-,3.13 µM
O=C(O)c1cn(C2CCCCC2)c2cc(NC3CCCCC3)c(F)cc2c1=O,-,-,MIC50,-,ATCC 27294 (WT),-,>200 µM
NC(=O)c1nnn2c1nc(N)c1cc(Cl)ccc12,BACTEC,-,MIC bound,-,H37Rv,-,>12.5 µg/mL
Cc1c(C(=O)NC(C)(C)C)[n+](=O)c2cc(Cl)ccc2n1[O-],-,-,MIC,-,H37Rv,-,>6.25 µg/mL
CC(C)(C)OC(=O)NC(Cc1ccccc1)C(=O)NC(CO)C(=O)NN,BACTEC,-,inhibition,-,H37Rv,12.8 µg/mL,25%
NNC(=O)c1ccncc1,-,-,MBC,-,131-4,-,0.05 µg/mL
[N-]=[N+]=NCCCCCN1C(=O)C2(OCCO2)c2cc(F)ccc21,-,-,MIC99,-,MC2 6230,-,>313 µM
O=C1C2=Nc3ccccc3C(O)N2c2ccccc21,resazurin,-,MIC bound,-,H37Rv,-,<6.25 µg/mL
CCOC(=O)Nc1cc2c(nc(-c3ccccc3)c3nncn32)c(NC(c2ccccc2)c2ccccc2)n1,-,-,EC50,-,H37Rv,-,>12.5 µg/mL
NNC(=O)c1ccncc1,fluorescence,-,MIC,-,H37Rv,-,0.16 µM
CC(C)C1=C(O)C2=C(C(=O)C1=O)[C@@]1(C)CCCC(C)(C)C1[C@H](O)[C@H]2O,MTT,-,MIC100,-,H37Rv,-,>25 µg/mL
Cc1nc(N)c2ncn([C@@H]3O[C@H](CO)[C@@H](O)[C@H]3O)c2n1,-,-,MIC,-,ATCC 35837 (ethambutol-resistant),-,<1.56 µg/mL
Cc1occc1C(=S)Nc1ccc(Cl)c(C(=O)OC(C)C2CC2)c1,BACTEC,-,inhibition,-,H37Rv,12.5 µg/mL,29%
CC(C)C1=C(O)C2=C(C(=O)C1=O)[C@@]1(C)CCCC(C)(C)C1C[C@H]2O,MTT,-,MIC100,-,MDR,-,12.5 µg/mL
CN(C)c1cccc2c(Cl)c(Cl)c3cccc(N(C)C)c3c12,BACTEC,-,inhibition,-,H37Rv,6.25 µg/mL,99%
CCCCCCN1C(=O)c2cc(Cl)nnc2Oc2cc(C)ccc21,BACTEC,-,inhibition,-,H37Rv,12.5 µg/mL,78%
O=C(Nc1ccc(Cn2ccnc2)cc1)c1ccc(-c2ccccc2)cc1,-,-,MIC,-,103471,-,>16 µg/mL
CC(=O)OC1=C(C(C)C)C(=O)C2=C(C1=O)[C@@]1(C)CCCC(C)(C)[C@@H]1[C@H](OC(C)=O)[C@H]2OC(C)=O,MTT,-,MIC100,-,MDR,-,12.5 µg/mL
Cc1ccc2c(c1)[n+](=O)c(C(=O)Nc1ccccc1C)c(C)n2[O-],-,-,MIC,-,H37Rv,-,>6.25 µg/mL
CC(=O)O[C@H]1C2=C(C(=O)C(C(=O)Oc3ccc(Cl)cc3)=C(C(C)C)C2=O)[C@@]2(C)CCCC(C)(C)[C@@H]2[C@@H]1O,MTT,-,MIC100,-,H37Rv,-,25 µg/mL
CC/C(=C(\c1ccccc1)c1ccc(OCCN(C)C)cc1)c1ccccc1,resazurin,-,MIC,-,Pyr-r,-,6.25–12.5 µg/mL
COc1ccc2c(c1)[n+](=O)c(C(=O)N1CCN(c3ccc([N+](=O)[O-])cc3)CC1)c(C)n2[O-],-,-,MIC,-,H37Rv,-,>6.25 µg/mL

Again, the opening 5 rows:

SMILES,method,conditions,read-out,cells,strain,dose,result
CC(C)(C)c1cc(C(C)(C)C)c2oc(-c3ccccc3O)nc2c1,BACTEC,-,MIC,-,H37Rv,-,>6.25 µg/mL
O=C(/C=C/c1ccccc1)Nc1ccccc1CN1CCOCC1,-,-,MIC,-,103471,-,>16 µg/mL
CCCCCN1C(=O)c2cc(Cl)nnc2Oc2cc(C)ccc21,BACTEC,-,EC50,-,H37Rv,-,<12.5 µg/mL
Cc1cc2c(cc1C)[n+](=O)c(C(=O)N1CCN(c3ccccc3)CC1)c(C)n2[O-],-,-,inhibition,-,H37Rv,6.25 µg/mL,0%
O=C(O)c1cn(C2CCCC2)c2cc(NC3CCCC3)c(F)cc2c1=O,-,-,MIC50,-,ATCC 27294 (WT),-,>200 µM